For orientation: stoichiometry N means a count of units in the complex or per binding partner.

Consider one protein from PMC12691673, “Structural insight into RNA encapsidation by the severe fever with thrombocytopenia syndrome virus nucleocapsid protein” (mBio, 2025).

This data set concerns the molecule itself. Briefly: cryo-EM structure.

B1: PEGylated SFTSV nucleocapsid protein (natural protein)
chain: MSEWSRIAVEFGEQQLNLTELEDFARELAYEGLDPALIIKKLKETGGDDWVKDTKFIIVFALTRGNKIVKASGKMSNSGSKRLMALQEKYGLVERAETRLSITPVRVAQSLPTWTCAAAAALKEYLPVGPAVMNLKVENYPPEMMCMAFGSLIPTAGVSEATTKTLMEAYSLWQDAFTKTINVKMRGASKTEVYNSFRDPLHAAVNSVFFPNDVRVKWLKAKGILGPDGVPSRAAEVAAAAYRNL
modifications: PEGylated with methyl-PEG4-NHS ester (modified residues not stated)
As to B1, the “stoichiometry N” value was 5.
